Anti-infective test results gathered from many reports (values: NIAID ChemDB through PubChem).

Shared fields: whole-cell or culture tests; agent: Plasmodium falciparum; endpoint: EC50

Neighbouring rows are from separate reports.

structure,cells,strain,mutations,read by,result
COc1cc(OC)c(C=C2SC(=O)N(CC(=O)N3CCN(c4ccccc4Cl)CC3)C2=O)c(OC)c1,,W2,Chloroquine-resistant,fluorescence,1.11 µM
CCOc1ccc2nc(C)cc(Nc3ccc4c(c3)OCCO4)c2c1,Erythrocytes,K1,,flow cytometry,>17.9 µM
O[C@H](c1cc(C(F)(F)F)nc2c(C(F)(F)F)cccc12)[C@@H]1CCCCN1,human red blood cells,W2,,broth dilution / radiometric,0.018 µM
CCCCNCCCCCOc1ccc2ccccc2c1,Erythrocytes,3D7,,flow cytometry,>13.1 µM
COc1cc(OC)c(C=C2SC(=O)N(CC(=O)N3CCN(C4CCCCC4)CC3)C2=O)c(OC)c1,,W2,Chloroquine-resistant,fluorescence,3.56 µM
C=CCOc1ccc(CNC(C)C(O)c2ccccc2)cc1,Erythrocytes,K1,,flow cytometry,>12 µM
C[C@H]1[C@@H](OC(=O)CCC(=O)O)O[C@@H]2O[C@@]3(C)CC[C@H]4[C@H](C)CC[C@@H]1[C@@]24OO3,human red blood cells,FCM29,,broth dilution / radiometric,0.0031 µM
O[C@H](c1cc(C(F)(F)F)nc2c(C(F)(F)F)cccc12)[C@@H]1CCCCN1,,GNF-Pf4492R-3,GNF-Pf4492-resistant pfatp4 A187V,SYBR Green / fluorescence,0.0161 µM
COc1ccc(N2CCN(C(=O)CN3C(=O)SC(=Cc4c(OC)cc(OC)cc4OC)C3=O)CC2)cc1,,W2,Chloroquine-resistant,fluorescence,1.21 µM
CC(O)CNCCCCOc1ccc(Cl)cc1Cc1ccccc1,Erythrocytes,K1,,flow cytometry,2.57 µM
CCN(CC)CCCC(C)Nc1ccnc2cc(Cl)ccc12,Erythrocyte,FCR3,,LDH,0.015 µg/mL
COc1cc(OC)c(C=C2SC(=O)N(CC(=O)N3CCN(C)CC3)C2=O)c(OC)c1,,W2,Chloroquine-resistant,fluorescence,>10 µM
CC(NCC(O)COc1ccccc1C(C)(C)C)c1ccccc1,Erythrocytes,3D7,,flow cytometry,3.1 µM
C[C@@H]1CC[C@H]2[C@@H](C)C(=O)O[C@@H]3OC4(C)CC[C@@H]1[C@]32OO4,,KAE609R-1,KAE609-resistant pfatp4 I398F/P990R/D1247Y,SYBR Green / fluorescence,0.0175 µM
COc1cc(OC)c(C=C2SC(=O)N(CC(=O)N3CCNCC3)C2=O)c(OC)c1,,W2,Chloroquine-resistant,fluorescence,5.28 µM

2 of the rows above, restated:

structure | cells | strain | mutations | read by | result
CC(O)CNCCCCOc1ccc(Cl)cc1Cc1ccccc1 | Erythrocytes | K1 |  | flow cytometry | 2.57 µM
CC(NCC(O)COc1ccccc1C(C)(C)C)c1ccccc1 | Erythrocytes | 3D7 |  | flow cytometry | 3.1 µM

Blank or dashed fields: not listed here. ECn: concentration that inhibits the pathogen or its effect by n%.